Pooled drug test results. Numbers come from NIAID ChemDB, via PubChem.

All rows: growth or infection tests; organism: Hepatitis C virus; cells: Huh7; endpoint: EC50

a–b is a range or a potency band.

CNC(=O)c1c(-c2ccc(F)cc2)oc2cc(N(Cc3ccc(C(=O)O)cc3)S(C)(=O)=O)c(OC(C)C)cc12 ; read by: replicon ; value: <1 µM
CC[C@@H](C)Nc1nc(N)nc2ncc(-c3ccc(OC)c(OC)c3)nc12 ; strain or isolate: HCV replicon ; read by: replicon ; value: 0.3–1 µM
CNC(=O)c1c(-c2ccc(F)cc2)oc2cc(N3CCOCC3)c(OCc3noc(-c4ccc(OC)cc4)n3)cc12 ; read by: replicon ; value: <1 µM
C=C[C@@H]1C[C@]1(NC(=O)[C@@H]1C[C@@H](Oc2cc(-c3ccccc3)nc3cc(OC)ccc23)CN1C(=O)[C@@H](NS(=O)(=O)C1CC1)C(C)(C)C)C(=O)NS(=O)(=O)C1CC1 ; strain or isolate: 1b ; read by: replicon ; value: <0.5 µM
CNC(=O)c1c(-c2ccc(F)cc2)oc2cc(-c3c(C)noc3C)c(O)cc12 ; read by: replicon ; value: <1 µM
Nc1nc(O[C@H]2CCOC2)c2nc(-c3ccc(C(=O)NCCCN4CCCC4)cc3)ccc2n1 ; read by: replicon ; value: 0.3–1 µM
CC(=O)Nc1ccc(CNc2cccc(CC(=O)N/N=C/c3ccccc3OS(=O)(=O)c3ccc(C(F)(F)F)cc3)c2)cc1 ; read by: replicon ; value: <5 µM
N#Cc1c(Nc2ccccc2F)s[nH]c1=O ; read by: replicon ; value: 10–50 µM
CCOc1nc(N)nc2ccc(-c3ccc(C(=O)NC(C)(C)C)cc3)nc12 ; read by: replicon ; value: >1 µM
C=C[C@H]1C[C@@]1(NC(=O)[C@@H]1C[C@@H](Oc2cc(-c3ccccc3)nc3cc(OC)ccc23)CN1C(=O)[C@@H](NC(=O)C1CCOCC1)C(C)(C)C)C(=O)NS(=O)(=O)C1(Cc2ccccc2)CC1 ; strain or isolate: 1b ; read by: replicon ; value: 0.5–5 µM
COc1ccc(-c2cnc3nc(N)nc(N4CCN(CC(=O)N5CCCC5)CC4)c3n2)cc1OC ; strain or isolate: HCV replicon ; read by: replicon ; value: <0.3 µM
C=C[C@H]1C[C@@]1(NC(=O)[C@@H]1C[C@@H](Oc2cc(-c3ccccc3)nc3cc(OC)ccc23)CN1C(=O)[C@@H](NC(=O)OC(C)(C)C)C(C)(C)C)C(=O)NS(=O)(=O)C1(CC(C)C)CC1 ; strain or isolate: 1b ; read by: replicon ; value: 0.05–0.5 µM
CNC(=O)c1c(-c2ccc(F)cc2)oc2cc(-c3cnco3)c(OC(C)C)cc12 ; read by: replicon ; value: <10 µM
NC(=O)C1Cc2ncccc2-c2c(C3CCCCC3)c3ccc(C(=O)O)cc3n2C1 ; read by: replicon ; value: 0.01–1 µM
C=C[C@H]1C[C@@]1(NC(=O)[C@@H]1C[C@@H](Oc2cc(-c3ccccc3)nc3cc(OC)ccc23)CN1C(=O)[C@@H](NC(=O)OC(C)(C)C)C(C)C)C(=O)NS(=O)(=O)C1(COC)CC1 ; strain or isolate: 1b ; read by: replicon ; value: <0.05 µM
COc1cccc(CC(=O)N/N=C/c2cc(Cl)ccc2OS(=O)(=O)c2ccc(C)cc2)c1 ; read by: replicon ; value: <5 µM
COc1ccc(-c2cnc3nc(N)nc(N4CCN(S(=O)(=O)Cc5ccccc5)CC4)c3n2)cc1OC ; strain or isolate: HCV replicon ; read by: replicon ; value: <0.3 µM
N#Cc1c(Nc2ccc(Br)c(F)c2)s[nH]c1=O ; read by: replicon ; value: <1 µM
COCCOc1nc(N)nc2ccc(-c3ccc(C(=O)NC(C)C)cc3)nc12 ; read by: replicon ; value: 0.3–1 µM
CO[C@@H](C(=O)N1CCC[C@@H]1C(=O)Nc1ccc(C2SC(=Nc3ccc(N4CCOCC4)cc3)N(Cc3ccccn3)C2=O)cc1)c1ccccc1 ; read by: replicon ; value: <0.1 µM
C=C[C@H]1C[C@@]1(NC(=O)[C@@H]1C[C@@H](Oc2ccnc3cc(Cl)ccc23)CN1C(=O)[C@@H](NC(=O)OC1CCCC1)C(C)(C)C)C(=O)NS(=O)(=O)C1(CCCC)CC1 ; strain or isolate: 1b ; read by: replicon ; value: 0.05–0.5 µM
CNC(=O)c1c(-c2ccc(F)cc2)oc2cc(N(C)S(C)(=O)=O)c(OCc3ccncc3)cc12 ; read by: replicon ; value: <1 µM
COC(=O)C1=Cc2ccncc2-c2c(C3CCCCC3)c3ccc(C(=O)OC)cc3n2C1 ; read by: replicon ; value: 1–10 µM
C[C@@H](NC(=O)Cc1ccccc1)C(=O)Nc1ccc(C2SC(=Nc3cccc(F)c3)N(Cc3ccco3)C2=O)cc1 ; read by: replicon ; value: <0.1 µM
COc1c(-c2ccc3cc(NS(C)(=O)=O)ccc3c2)cc(-n2ccc(=O)[nH]c2=O)cc1C(C)(C)C ; strain or isolate: genotype 1a H77 ; changes: Y448C ; read by: luciferase ; value: 0.902 µM
CNC(=O)c1c(-c2ccc(F)cc2)oc2cc(N(C)C3CC3)c(OC(C)C)cc12 ; read by: replicon ; value: <1 µM
COCCOc1nc(N)nc2ccc(-c3ccc(C(=O)NC4CC4)cc3)nc12 ; read by: replicon ; value: <0.3 µM
O=C(Cc1cccnc1)N/N=C/c1ccccc1OS(=O)(=O)c1ccc(C(F)(F)F)cc1 ; read by: replicon ; value: <5 µM
N#Cc1c(Nc2ccc(Br)cc2)s[nH]c1=O ; read by: replicon ; value: <1 µM
C=C[C@@H]1C[C@]1(NC(=O)[C@@H]1C[C@@H](Oc2cc(-c3ccccc3)nc3cc(OC)ccc23)CN1C(=O)[C@@H](NC(=O)COC)C(C)(C)C)C(=O)NS(=O)(=O)C1CC1 ; strain or isolate: 1b ; read by: replicon ; value: <0.5 µM
C=C[C@H]1C[C@@]1(NC(=O)[C@@H]1C[C@@H](Oc2cc(-c3ccccc3)nc3cc(OC)ccc23)CN1C(=O)[C@@H](NC(=O)OC(C)(C)C)C(C)(C)C)C(=O)NS(=O)(=O)C1(COC(C)C)CC1 ; strain or isolate: 1b ; read by: replicon ; value: <0.05 µM
C=C[C@@H]1C[C@]1(NC(=O)[C@@H]1C[C@@H](Oc2cc(-c3ccccc3)nc3cc(OC)ccc23)CN1C(=O)[C@@H](NC(=O)OCC(C)(C)C)C(C)(C)C)C(=O)NS(=O)(=O)C1CC1 ; strain or isolate: 1b ; read by: replicon ; value: <0.05 µM
CNC(=O)c1c(-c2ccccc2Cl)oc2ccc(OC)cc12 ; read by: replicon ; value: >30 µM
O=C(O)c1ccc2c(C3CCCCC3)c3n(c2c1)CC(C(=O)NCCO)Cc1ccccc1-3 ; read by: replicon ; value: 0.01–1 µM
N#Cc1c(Nc2ccc(Cl)cc2)s[nH]c1=O ; read by: replicon ; value: 1–10 µM
COC(=O)C1=Cc2ccccc2-c2c(C3CCCCC3)c3ccc(C(=O)NS(=O)(=O)N(C)C)cc3n2C1 ; read by: replicon ; value: 0.01–1 µM
N#Cc1c(Nc2ccc(C(=O)O)cc2)s[nH]c1=O ; read by: replicon ; value: >50 µM
C=C[C@@H]1C[C@]1(NC(=O)[C@@H]1C[C@@H](Oc2cc(-c3ccccc3)nc3cc(OC)ccc23)CN1C(=O)[C@@H](NC(=O)OC(C)(C)C)C(C)C)C(=O)NS(=O)(=O)C1CCC1 ; strain or isolate: 1b ; read by: replicon ; value: <0.05 µM
Cc1cc(-c2nnc(N[C@@H]3CCC[C@H](O)C3)o2)nc2c(C(C)(C)C)cc(OCC(F)(F)F)cc12 ; strain or isolate: GT 2a JFH ; value: 0.096 µM
Cc1cccc(Nc2s[nH]c(=O)c2C#N)c1 ; read by: replicon ; value: 1–10 µM
C=CC1CC1(NC(=O)[C@@H]1C[C@@H](Oc2cc(-c3ccccc3)nc3cc(OC)ccc23)CN1C(=O)[C@@H](NC(=O)OC(C)(C)C)C(C)(C)C)C(=O)NS(=O)(=O)C1(C(=O)Nc2ccccc2)CC1 ; strain or isolate: 1b ; read by: replicon ; value: 0.05–0.5 µM
O=C(NS(=O)(=O)c1ccccc1)c1ccc2c(C3CCCCC3)c3n(c2c1)CCCc1ncccc1-3 ; read by: replicon ; value: 1–10 µM
C=CC1C[C@@]1(NC(=O)[C@@H]1C[C@@H](Oc2cc(-c3ccccc3)nc3cc(OC)ccc23)CN1C(=O)[C@@H](NC(=O)Oc1ccc(C(F)(F)F)cc1)C(C)(C)C)C(=O)NS(=O)(=O)C1(Cc2ccccc2)CC1 ; strain or isolate: 1b ; read by: replicon ; value: 0.5–5 µM
COc1cccc(CC(=O)N/N=C/c2c(Cl)cccc2OS(=O)(=O)c2ccc(C(F)(F)F)cc2)c1 ; read by: replicon ; value: <5 µM
Fc1ccc(CNc2nc(NCC(F)(F)F)c3nc(-c4ccc(F)cc4)cnc3n2)cc1 ; strain or isolate: HCV replicon ; read by: replicon ; value: <0.3 µM
N#Cc1c(Nc2ccc(Cl)c(C(F)(F)F)c2)s[nH]c1=O ; read by: replicon ; value: 1–10 µM
C=CC1C[C@@]1(NC(=O)[C@@H]1C[C@@H](Oc2cc(-c3ccccc3)nc3cc(OC)ccc23)CN1C(=O)[C@@H](NC(=O)OC1(C(=O)OCC)CC1)C(C)(C)C)C(=O)NS(=O)(=O)C1(Cc2ccccc2)CC1 ; strain or isolate: 1b ; read by: replicon ; value: 0.05–0.5 µM
CC[C@H](C)[C@H](NC(=O)OC(C)(C)C)C(=O)N1C[C@H](Oc2cc(-c3ccccc3)nc3cc(OC)ccc23)C[C@H]1C(=O)NC1(C(=O)NS(=O)(=O)C2CC2)CC1 ; strain or isolate: 1b ; read by: replicon ; value: <5 µM
CC(Nc1nc(NCC(F)(F)F)c2nc(-c3ccc(F)cc3)cnc2n1)c1ccc(S(N)(=O)=O)cc1 ; strain or isolate: HCV replicon ; read by: replicon ; value: <0.3 µM
C=C[C@@H]1C[C@]1(NC(=O)[C@@H]1C[C@@H](Oc2cc(-c3ccccc3)nc3cc(OC)ccc23)CN1C(=O)[C@@H](NC(=O)OC(C)(C)C)C(C)(C)C)C(=O)NS(=O)(=O)C1CCC1 ; strain or isolate: 1b ; read by: replicon ; value: <0.05 µM
CNC(=O)c1c(-c2ccc(F)cc2)oc2cc(-c3cc[nH]c3)c(OC)cc12 ; read by: replicon ; value: <1 µM
CC(C)Oc1nc(N)nc2ccc(-c3ccc(C(=O)NC4CC4)c(Cl)c3)nc12 ; read by: replicon ; value: >1 µM
O=C(O)/C=C/c1ccc(NC(=O)C2(NC(=O)c3ccc4c(C5CCCCC5)c5n(c4c3)CC(C(=O)N3CCOCC3)Cc3cccnc3-5)CCCC2)cc1 ; read by: replicon ; value: 0.01–1 µM
COc1ccc(-c2cnc3nc(N)nc(N4CCN(S(=O)(=O)c5ccccc5)CC4)c3n2)cc1OC ; strain or isolate: HCV replicon ; read by: replicon ; value: <0.3 µM
CNC(=O)c1c(-c2ccc(F)cc2)oc2cc(N(C)S(C)(=O)=O)c(OCC(=O)c3ccc(F)cc3)cc12 ; read by: replicon ; value: <1 µM
Cc1cc(-c2nnc(NC3CC(O)(C(F)F)C3)o2)nc2c(C(C)(C)C)cc(NCC(F)(F)F)cc12 ; strain or isolate: GT 1b H94N ; value: 0.0074 µM
O=C(N/N=C/c1ccccc1OS(=O)(=O)c1ccc(C(F)(F)F)cc1)c1ccccc1F ; read by: replicon ; value: 5–50 µM
C=C[C@@H]1C[C@]1(NC(=O)[C@@H]1C[C@@H](Oc2cc(-c3ccccc3)nc3cc(OC)ccc23)CN1C(=O)[C@@H](NC(=O)OC(C)(C)C)C(C)(C)C)C(=O)NS(=O)(=O)c1cccc(C)c1 ; strain or isolate: 1b ; read by: replicon ; value: <0.5 µM
COc1ccc(-c2cnc3nc(N)nc(N4CCN(C(=O)c5ccncc5)CC4)c3n2)cc1OC ; strain or isolate: HCV replicon ; read by: replicon ; value: <0.3 µM
O=C(Nc1ccc(C2SC(=Nc3cccc(F)c3)N(CC3CCCO3)C2=O)cc1)[C@H]1CCCN1C(=O)OCc1ccccc1 ; read by: replicon ; value: <0.1 µM
C=CC1C[C@@]1(NC(=O)[C@@H]1C[C@@H](Oc2cc(-c3ccccc3)nc3cc(OC)ccc23)CN1C(=O)[C@@H](NC(=O)CC(C)(C)C)C(C)(C)C)C(=O)NS(=O)(=O)C1(Cc2ccccc2)CC1 ; strain or isolate: 1b ; read by: replicon ; value: 0.05–0.5 µM
O=C(O)c1ccc2c(C3CCCCC3)c3n(c2c1)CC(C(=O)N1CCOCC1)=Cc1cccnc1-3 ; read by: replicon ; value: 0.01–1 µM
COc1ccc(-c2cnc3nc(N)nc(N4CCN(C(=O)Nc5ccc(F)c(Cl)c5)CC4)c3n2)cc1OC ; strain or isolate: HCV replicon ; read by: replicon ; value: <0.3 µM
CC(C)(C)O[C@H]1C[C@H](C(=O)Nc2ccc(C3SC(=Nc4ccc(N5CCOCC5)cc4)N(Cc4ccccn4)C3=O)cc2)N(C(=O)OCc2ccccc2)C1 ; read by: replicon ; value: 1–5 µM

A second listing of 7 rows from above:

structure	strain or isolate	changes	read by	value
C=CC1C[C@@]1(NC(=O)[C@@H]1C[C@@H](Oc2cc(-c3ccccc3)nc3cc(OC)ccc23)CN1C(=O)[C@@H](NC(=O)OC1(C(=O)OCC)CC1)C(C)(C)C)C(=O)NS(=O)(=O)C1(Cc2ccccc2)CC1	1b		replicon	0.05–0.5 µM
O=C(O)c1ccc2c(C3CCCCC3)c3n(c2c1)CC(C(=O)NCCO)Cc1ccccc1-3			replicon	0.01–1 µM
COc1c(-c2ccc3cc(NS(C)(=O)=O)ccc3c2)cc(-n2ccc(=O)[nH]c2=O)cc1C(C)(C)C	genotype 1a H77	Y448C	luciferase	0.902 µM
COc1ccc(-c2cnc3nc(N)nc(N4CCN(C(=O)c5ccncc5)CC4)c3n2)cc1OC	HCV replicon		replicon	<0.3 µM
O=C(N/N=C/c1ccccc1OS(=O)(=O)c1ccc(C(F)(F)F)cc1)c1ccccc1F			replicon	5–50 µM
C=C[C@H]1C[C@@]1(NC(=O)[C@@H]1C[C@@H](Oc2cc(-c3ccccc3)nc3cc(OC)ccc23)CN1C(=O)[C@@H](NC(=O)C1CCOCC1)C(C)(C)C)C(=O)NS(=O)(=O)C1(Cc2ccccc2)CC1	1b		replicon	0.5–5 µM
C=C[C@@H]1C[C@]1(NC(=O)[C@@H]1C[C@@H](Oc2cc(-c3ccccc3)nc3cc(OC)ccc23)CN1C(=O)[C@@H](NC(=O)COC)C(C)(C)C)C(=O)NS(=O)(=O)C1CC1	1b		replicon	<0.5 µM

Neighbouring rows are from separate reports. Blank or dashed fields: not listed here. ECn: concentration that inhibits the pathogen or its effect by n%.